{"source": "paper PMC8443799", "about": "“Structural characterization of KKT4, an unconventional microtubule-binding kinetochore protein”", "target": "T1, KKT4 BRCT domain (KKT4 463-645) (Trypanosoma brucei) (UniProt Q580Y8)", "T1 sequence (looked up)": "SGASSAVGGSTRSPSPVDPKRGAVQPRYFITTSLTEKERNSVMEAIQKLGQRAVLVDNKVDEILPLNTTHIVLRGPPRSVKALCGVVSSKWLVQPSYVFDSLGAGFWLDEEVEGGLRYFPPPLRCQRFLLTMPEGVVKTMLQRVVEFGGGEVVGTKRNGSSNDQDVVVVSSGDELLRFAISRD", "test": "fluorescence anisotropy", "settings": "up to 1 uM protein, 1 nM DNA, failed to saturate the signal, legend says does not bind DNA, 25 mM HEPES pH 7.5, 50 mM NaCl, 0.5 mM TCEP, 30 min at room temperature, recombinant protein, residues 463-645, protein details: 6HIS removed by TEV, label: 5' 6-FAM", "note": "A weaker result is weaker than the reference pair of the same experiment. Protein sequences can lack the tags named with them.", "data": [{"sequence": "CAATATGTAAGGTGTTTTGGTGTAAAACACGCATTCTTGCATAACATGCA (double strand) [BA3098 50-bp CIR147 DNA probe]", "values": [{"measurement": "binding result", "value": "binds more weakly"}]}]}
